A mixed list of measured activities; the numbers were collected in NIAID ChemDB.

Common to all: whole-cell or culture tests; agent: Candida parapsilosis; measure: MIC80

Neighbouring rows are from separate reports. MIC50, MIC90 and the like: level of inhibition, or share of isolates inhibited.

{"compound": "O=C1S/C(=C\\c2ccncc2)C(=O)N1CC(O)(Cn1nccn1)c1ccc(F)cc1F", "strain": "CNCYP51", "result": "36.08 µg/mL"}
{"compound": "Cc1ccc(-c2c3c(N)c4c(nc3nc3c2c(C)nn3-c2ccccc2)CCC4)cc1", "strain": "CCC 124", "method": "broth dilution / absorbance", "result": "62.5 µg/mL"}
{"compound": "O=C(OC1CCN(CC(O)(Cn2cncn2)c2ccc(F)cc2F)CC1)C(F)(F)Cl", "strain": "0306392", "method": "broth dilution", "result": "35.5 µM"}
{"compound": "CN(C)c1ccc(/C=C2\\SC(=O)N(CC(O)(Cn3nccn3)c3ccc(F)cc3F)C2=O)cc1", "strain": "CNCYP51", "result": "8.24 µg/mL"}
{"compound": "CCCCN(Cc1cn(Cc2cccc([N+](=O)[O-])c2)nn1)CC(O)(Cn1cncn1)c1ccc(F)cc1F", "result": "8 µg/mL"}
{"compound": "O=C(/C=C/c1ccc(Cl)cc1)OC1CCN(CC(O)(Cn2cncn2)c2ccc(F)cc2F)CC1", "strain": "0306392", "method": "broth dilution", "result": "0.124 µM"}
{"compound": "CCCCN(Cc1cn(Cc2ccccc2C#N)nn1)CC(O)(Cn1cncn1)c1ccc(F)cc1F", "result": "4 µg/mL"}
{"compound": "Cc1ccc(-c2c3c(N)c4c(nc3nc3c2c(C)nn3-c2ccccc2)CCCCC4)cc1", "strain": "CCC 124", "method": "broth dilution / absorbance", "result": "125 µg/mL"}
{"compound": "CCCCN(Cc1cn(Cc2ccccc2[N+](=O)[O-])nn1)CC(O)(Cn1cncn1)c1ccc(F)cc1F", "result": "4 µg/mL"}
{"compound": "O=C1S/C(=C\\c2ccoc2)C(=O)N1CC(O)(Cn1nccn1)c1ccc(F)cc1F", "strain": "CNCYP51", "result": "1.16 µg/mL"}
{"compound": "CCCCN(Cc1cn(Cc2cccc(C#N)c2)nn1)CC(O)(Cn1cncn1)c1ccc(F)cc1F", "result": "16 µg/mL"}
{"compound": "O=C(/C=C/c1ccccc1Br)OC1CCN(CC(O)(Cn2cncn2)c2ccc(F)cc2F)CC1", "strain": "0306392", "method": "broth dilution", "result": "0.458 µM"}
{"compound": "O=C1S/C(=C\\c2ccc(F)cc2)C(=O)N1CC(O)(Cn1nccn1)c1ccc(F)cc1F", "strain": "CNCYP51", "result": "0.54 µg/mL"}
{"compound": "CCCC(C)(C)C(=O)OC1CCN(CC(O)(Cn2cncn2)c2ccc(F)cc2F)CC1", "strain": "0306392", "method": "broth dilution", "result": "0.573 µM"}
{"compound": "Cn1cccc1/C=C1\\SC(=O)N(CC(O)(Cn2nccn2)c2ccc(F)cc2F)C1=O", "strain": "CNCYP51", "result": "2.24 µg/mL"}

2 of the rows above, restated:

CN(C)c1ccc(/C=C2\SC(=O)N(CC(O)(Cn3nccn3)c3ccc(F)cc3F)C2=O)cc1 ; strain: CNCYP51 ; result: 8.24 µg/mL
O=C1S/C(=C\c2ccncc2)C(=O)N1CC(O)(Cn1nccn1)c1ccc(F)cc1F ; strain: CNCYP51 ; result: 36.08 µg/mL